Test system: N,N′-diacetyl-Lys-D-Ala-D-Ala
Assay: ITC of binding to tri-peptide cell-wall analog, with and without HSA
Protocol: Peptide concentrations were determined by weight.
Trans. R. Soc. Lond. Ser. A-Math. Phys. Eng. […] Wiley, (1998) p 103-111; and Cooper, A., Curr. Opin. Chem. Biol. (1999) 3, 557-563.

**Q.** Which ΔS (25 ° C., with HSA 34.2 μM) does the source give for `CN[C@H]1C(=O)N[C@@H]2Cc3ccc(cc3)Oc3cc4cc(c3O[C@@H]3O[C@H](C(=O)O)[C@@H](O)[C@H](O)[C@H]3NC(=O)CCCCCCCCC(C)C)Oc3ccc(cc3Cl)[C@@H](O)[C@@H]3NC(=O)[C@H](NC(=O)[C@@H]4NC(=O)[C@@H](NC2=O)c2cc(cc(O)c2Cl)Oc2cc1ccc2O)c1ccc(O)c(c1)-c1c(O[C@H]2O[C@H](CO)[C@@H](O)[C@H](O)[C@@H]2O)cc(O)cc1[C@@H](C(=O)NCCCN(C)C)NC3=O` [Dalbavancin] here?
**A.** −46.20 eu

**Q.** What about the “N (tri-peptide per dalbavancin)” value (absence of HSA) of the same molecule?
**A.** ~0.5
